Results of unrelated studies side by side (data: NIAID ChemDB).

Shared fields: tests on isolated targets; agent: HIV-1; protein: Protease; endpoint: IC50

Conditions beyond the fields shown may differ between rows.

CC(C)C[C@H](NC(=O)[C@@H](NC(=O)CCCCCCCCCCCCCCC(=O)N[C@@H](CCC(N)=O)C(=O)N[C@@H](Cc1ccccc1)C(=O)O)C(C)O)C(=O)N[C@@H](Cc1ccccc1)C(N)=O ; value: >5.5 µM
CC(C)(C)OC(=O)N[C@@H](Cc1ccccc1)[C@H](O)CNC[C@@H](O)[C@H](Cc1ccccc1)NC(=O)OC1c2ccccc2CC1O ; read by: HPLC ; conditions: pH 5.5 ; value: <10 µM
CNN[C@H](C(=O)NC(=O)[C@H]1N(C(=O)[C@@H](O)[C@H](Cc2ccccc2)NC(=O)[C@@H](NC(=O)[C@H](Cc2ccccc2)NC(C)=O)C(C)C)CSC1(C)C)C(C)C ; value: 0.01 µM
CC(C)C[C@H](NC(=O)[C@@H](NC(=O)CCCCCCCCCCCCCCC(=O)N[C@@H](CC(N)=O)C(=O)N[C@@H](Cc1ccccc1)C(=O)O)C(C)O)C(=O)N[C@@H](Cc1ccc(Br)cc1)C(N)=O ; value: 3.6 µM
Cc1ccc(S(=O)(=O)N[C@@H](C)C(=O)N[C@H](C(=O)N[C@@H](Cc2ccccc2)[C@@H](O)[C@H](O)[C@H](Cc2ccccc2)NC(=O)[C@@H](NC(=O)[C@H](C)NS(=O)(=O)c2ccc(C)cc2)C(C)C)C(C)C)cc1 ; changes: PR-V82F ; value: 0.006 µM
CC(C)(C)OC(=O)N[C@@H](Cc1ccccc1)[C@H](O)CNC[C@@H](O)[C@H](Cc1ccccc1)NC(=O)OC(C)(C)CCOCc1ccccc1 ; read by: HPLC ; conditions: pH 5.5 ; value: <10 µM
CSCC[C@H](NC(=O)CCCCCCCCCCCCCCC(=O)N[C@H](C(=O)N[C@@H](CC(C)C)C(=O)N[C@@H](Cc1ccccc1)C(N)=O)C(C)C)C(=O)N[C@@H](Cc1ccccc1)C(=O)O ; read by: HPLC ; value: 0.58 µM
CC(C)[C@H](NC(=O)[C@H](C)NS(=O)(=O)c1ccc([N+](=O)[O-])cc1)C(=O)N[C@@H](Cc1ccccc1)C(O)C(O)[C@H](Cc1ccccc1)NC(=O)[C@@H](NC(=O)[C@H](C)NS(=O)(=O)c1ccc([N+](=O)[O-])cc1)C(C)C ; value: 0.079 µM
CC(C)C[C@H](NC(=O)[C@@H](NC(=O)CCCCCCCCCCCCCCC(=O)N[C@@H](CC(N)=O)C(=O)N[C@@H](CCc1ccccc1)C(=O)O)C(C)O)C(=O)N[C@@H](Cc1ccc(-c2ccccc2)cc1)C(N)=O ; read by: HPLC ; value: 0.64 µM
COc1ccc(NC(=O)N[C@@H](C)C(=O)N[C@H](C(=O)N[C@@H](Cc2ccccc2)C(O)C(O)[C@H](Cc2ccccc2)NC(=O)[C@@H](NC(=O)[C@H](C)NC(=O)Nc2ccc(OC)cc2)C(C)C)C(C)C)cc1 ; value: 0.014 µM
CC(C)C[C@H](NC(=O)[C@@H](NC(=O)CCCCCCCCCCCCCCC(=O)N[C@@H](CC(N)=O)C(=O)N[C@@H](CCc1ccccc1)C(=O)O)C(C)O)C(=O)N[C@@H](Cc1cc(I)c(Oc2cc(I)c(O)c(I)c2)c(I)c1)C(N)=O ; read by: HPLC ; value: 0.4 µM
CC(O)[C@H](NC(=O)CCCCCCCCCCCCCCC(=O)N[C@@H](CC(N)=O)C(=O)N[C@@H](Cc1ccccc1)C(=O)O)C(=O)N[C@@H](Cc1ccc(O)cc1)C(=O)N[C@@H](Cc1ccccc1)C(N)=O ; value: 7.2 µM
CC(C)[C@H](NC(=O)[C@H](O)Cc1ccccc1)C(=O)N[C@@H](Cc1ccccc1)[C@H](O)CNC[C@@H](O)[C@H](Cc1ccccc1)NC(=O)OC(C)(C)C ; read by: HPLC ; conditions: pH 5.5 ; value: <10 µM
CC(C)[C@H](NC(=O)[C@H](C)NC(=O)OCc1ccccc1)C(=O)N[C@@H](Cc1ccccc1)[C@@H](O)[C@H](O)[C@H](Cc1ccccc1)NC(=O)[C@@H](NC(=O)[C@H](C)NC(=O)OCc1ccccc1)C(C)C ; changes: PR-V82A ; value: 0.013 µM
CSCC[C@H](NC(=O)CCCCCCCCCCCCCCC(=O)N[C@@H](CC(N)=O)C(=O)N[C@@H](Cc1cccc2ccccc12)C(=O)O)C(=O)N[C@@H](CC(C)C)C(=O)N[C@@H](Cc1ccccc1)C(N)=O ; read by: HPLC ; value: 0.37 µM
CC(C)C[C@H](NC(=O)[C@@H](NC(=O)CCCCCCCCCCCCCCC(=O)N[C@@H](CC(N)=O)C(=O)N[C@@H](Cc1ccccc1)C(=O)O)C(C)O)C(=O)N[C@@H](Cc1ccc(C(=O)c2ccccc2)cc1)C(N)=O ; value: 7.6 µM
CC(C)[C@H](NC(=O)[C@H](C)O)C(=O)N[C@@H](Cc1ccccc1)[C@H](O)CNC[C@@H](O)[C@H](Cc1ccccc1)NC(=O)OC(C)(C)C ; read by: HPLC ; conditions: pH 5.5 ; value: <10 µM
CC(C)[C@H](NC(=O)[C@H](C)NC(=O)Nc1ccc(OC(F)(F)F)cc1)C(=O)N[C@@H](Cc1ccccc1)C(O)C(O)[C@H](Cc1ccccc1)NC(=O)[C@@H](NC(=O)[C@H](C)NC(=O)Nc1ccc(OC(F)(F)F)cc1)C(C)C ; value: 1.8 µM
C[C@@H](O)[C@H](NC(=O)CCCCCCCCCCCCCCC(=O)N[C@@H](CC(N)=O)C(=O)N[C@@H](Cc1ccccc1)C(=O)O)C(=O)N[C@H](C(=O)N[C@@H](Cc1ccccc1)C(N)=O)C1CCCCC1 ; read by: HPLC ; value: 0.68 µM
CSCC[C@H](NC(=O)CCCCCCCCCCCCCCC(=O)N[C@@H](CC(N)=O)C(=O)N[C@@H](Cc1ccccc1)C(=O)O)C(=O)N[C@@H](CC(C)C)C(=O)N[C@@H](Cc1ccccc1)C(N)=O ; value: 1.16 µM

ICn is the concentration giving n% inhibition.